Measured values as given in patent US6608027B1, “Macrocyclic peptides active against the hepatitis C virus” (Boehringer Ingelheim (Canada) Ltd, priority 1999, dated 2003).

Amino acid sequences for entries named in this document (tags omitted). Residues count along the entry.
UniProt P26663, 1027-1657 limits assumed: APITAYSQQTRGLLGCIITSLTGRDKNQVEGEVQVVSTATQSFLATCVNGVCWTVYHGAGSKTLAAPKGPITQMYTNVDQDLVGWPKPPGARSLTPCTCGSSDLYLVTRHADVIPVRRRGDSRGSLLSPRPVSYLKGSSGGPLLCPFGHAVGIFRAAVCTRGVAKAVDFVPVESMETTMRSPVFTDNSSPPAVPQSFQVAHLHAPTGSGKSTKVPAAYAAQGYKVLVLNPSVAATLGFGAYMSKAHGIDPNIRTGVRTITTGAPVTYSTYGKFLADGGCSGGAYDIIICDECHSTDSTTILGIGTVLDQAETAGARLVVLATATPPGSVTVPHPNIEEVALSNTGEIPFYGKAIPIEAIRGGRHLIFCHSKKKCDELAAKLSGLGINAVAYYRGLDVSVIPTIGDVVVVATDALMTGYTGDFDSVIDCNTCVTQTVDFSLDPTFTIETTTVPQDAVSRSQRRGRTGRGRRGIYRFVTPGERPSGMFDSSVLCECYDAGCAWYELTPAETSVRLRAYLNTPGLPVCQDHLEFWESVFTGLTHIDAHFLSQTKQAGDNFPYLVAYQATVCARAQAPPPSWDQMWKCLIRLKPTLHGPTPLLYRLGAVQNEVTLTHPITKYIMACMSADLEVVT
UniProt P26663, 1658-1711 partner limits assumed: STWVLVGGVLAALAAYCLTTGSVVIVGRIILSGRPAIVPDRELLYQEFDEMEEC

Molecular target: NS3 protease (Hepatitis C virus genotype 1b, UniProt P26663)
Assay: NS3 protease cell-based assay (SEAP reporter, Huh-7 cells)
Set-up: species or system HCV
Settings: read-out: cell. act. (EC50 code), SEAP activity, 24-hour incubation
Excerpt: This assay is done with Huh-7 cells, a human cell line derived from a hepatoma, co-transfected with 2 DNA constructs: one (called NS3) expressing part of the HCV non-structural polyprotein fused to the tTA protein through an NS5A-NS5B cleavage site in the following order: NS3-NS4A-NS4B-NS5A-(NS5B)tTA where (NS5B) represents the 6 first amino acids of NS5
B. This polyprotein is expressed under the control of the CMV promoter, the other (called SEAP) expressing the reporter protein, secreted alkaline phosphatase (SEAP), under the regulation of a tTA-responsive promoter. The first construct leads to the expression of a polyprotein from which the different mature proteins are released through cleavage by the NS3 protease. It is believed that the mature viral proteins forms a complex at the membrane of the endoplasmic reticulum. tTA is a fusion protein, described by Gossen and Bujard (Proc. Natl. Acad. Sci. USA 89 (1992): 5547-5551), which contains a DNA-binding domain and a transcriptional activator. Release of the tTA protein requires an NS3-dependent cleavage at the NS5A-NS5B cleavage site between NS5A and itself. This last cleavage allows tTA to migrate to the nucleus and transactivate the SEAP gene. Therefore, reduction of NS3 proteolytic activity leads to confinement of tTA to the cytoplasm and concomitant decrease in SEAP activity.
To control for cellular activities other than inhibition of NS3 protease which are due to the compound, a parallel co-transfection is done with a construct expressing tTA alone and the same reporter construct such that SEAP activity is independent of the NS3 protease.
Protocol of the assay: Huh-7 cells, grown in CHO-SFMII (Life Technologies)+10% FCS (fetal calf serum) were co-transfected with the two DNA constructs in the following proportions: 7 μg NS3+500 ng SEAP+[…] FuGENE (Boehringer Mannheim) per 4×10^6 Huh-7 cells. After 5 hours at 37° C., the cells were washed, trypsinized and plated (at 80 000 cells/well) in 96-well plates containing a range of concentrations of the compounds to be tested. After a 24-hour incubation period, the SEAP activity in the medium was measured with the Phospha-Light kit (Tropix).
Analysis of the percent inhibition of SEAP activity with respect to compound concentration was performed with the SAS software to obtain the EC50.

`COc1ccc2c(O[C@@H]3C[C@H]4C(=O)N[C@]5(C(=O)O)C[C@H]5/C=C\CCCCC[C@H](NC(=O)N[C@H](C)C(C)(C)C)C(=O)N4C3)cc(-c3csc(NC(C)=O)n3)nc2c1` and `CCNc1nc(-c2cc(O[C@@H]3C[C@H]4C(=O)N[C@]5(C(=O)O)C[C@H]5/C=C\CCCCC[C@H](NC(=O)N[C@H](C)C(C)(C)C)C(=O)N4C3)c3ccc(OC)cc3n2)cs1` cannot be ordered by EC50: < 1000 nM for the first, < 1000 nM for the second.

First: CCOc1cc(O[C@@H]2C[C@H]3C(=O)N[C@]4(C(=O)O)C[C@H]4/C=C\CCCCC[C@H](NC(=O)OC4CCCC4)C(=O)N3C2)c2ccc(OC)cc2n1
Second: CCOc1cc(O[C@@H]2C[C@H]3C(=O)N[C@]4(C(=O)O)C[C@H]4/C=C\CCCCC[C@H](NC(=O)C4CCCC4)C(=O)N3C2)c2ccc(OC)cc2n1
The EC50 of the first is lower: < 1000 nM for the first, > 1000 nM for the second. The first is the more potent here.

`COc1ccc2c(O[C@@H]3C[C@H]4C(=O)N[C@]5(C(=O)O)C[C@H]5CCCC[C@H](C)CC[C@H](NC(=O)OC(C)(C)C)C(=O)N4C3)cc(-c3ccccc3)nc2c1` and `COc1ccc2c(O[C@@H]3C[C@H]4C(=O)N[C@]5(C(=O)O)C[C@H]5CCCC[C@@H](C)CC[C@H](NC(=O)OC(C)(C)C)C(=O)N4C3)cc(-c3ccccc3)nc2c1` cannot be ordered by EC50: < 1000 nM for the first, < 1000 nM for the second.

`COc1ccc2c(O[C@@H]3C[C@H]4C(=O)N[C@]5(C(=O)O)C[C@H]5CCCCCCC[C@H](NC(=O)OC(C)(C)C)C(=O)N4C3)cc(-c3nccs3)nc2c1` and `COc1ccc2c(O[C@@H]3C[C@H]4C(=O)N[C@]5(C(=O)O)C[C@H]5CCCCCCC[C@H](NC(=O)OC(C)(C)C)C(=O)N4C3)cc(-c3ccccn3)nc2c1` cannot be ordered by EC50: < 1000 nM for the first, < 1000 nM for the second.

`CCCC(=O)N[C@H]1CCCCC/C=C\[C@@H]2C[C@@]2(C(=O)O)NC(=O)[C@@H]2C[C@@H](Oc3cc(OCC)nc4cc(OC)ccc34)CN2C1=O` and `CCOc1cc(O[C@@H]2C[C@H]3C(=O)N[C@]4(C(=O)O)C[C@H]4/C=C\CCCCC[C@H](NC(=O)OC(C)C)C(=O)N3C2)c2ccc(OC)cc2n1` cannot be ordered by EC50: > 1000 nM for the first, > 1000 nM for the second.

`COc1ccc2c(O[C@@H]3C[C@H]4C(=O)N[C@]5(C(=O)O)C[C@H]5CCCCCCC[C@H](NC(=O)OC(C)(C)C)C(=O)N4C3)cc(-n3cccc3)nc2c1` and `CCOc1cc(O[C@@H]2C[C@H]3C(=O)N[C@]4(C(=O)O)C[C@H]4CCCCCCC[C@H](NC(=O)OC(C)(C)C)C(=O)N3C2)c2ccc(OC)cc2n1` cannot be ordered by EC50: < 1000 nM for the first, < 1000 nM for the second.

`CCNc1nc(-c2cc(O[C@@H]3C[C@H]4C(=O)N[C@]5(C(=O)O)C[C@H]5/C=C\CCCCC[C@H](NC(=O)OC5CCC5)C(=O)N4C3)c3ccc(OC)cc3n2)cs1` and `COc1ccc2c(OC3CC4C(=O)NC5(C(=O)O)CC5C=CCCCCCC(NC(=O)OC5CCC5)C(=O)N4C3)cc(-c3csc(NC(C)=O)n3)nc2c1` (stereo not shown) cannot be ordered by EC50: < 1000 nM for the first, < 1000 nM for the second.

`CNC(=O)Nc1nc(-c2cc(O[C@@H]3C[C@H]4C(=O)N[C@]5(C(=O)O)C[C@H]5CCCCCCC[C@H](NC(=O)OC(C)(C)C)C(=O)N4C3)c3ccc(OC)cc3n2)cs1` and `COc1ccc2c(O[C@@H]3C[C@H]4C(=O)N[C@]5(C(=O)O)C[C@H]5CCCCCCC[C@H](NC(=O)OC(C)(C)C)C(=O)N4C3)cc(-c3csc(NC(C)=O)n3)nc2c1` cannot be ordered by EC50: < 1000 nM for the first, < 1000 nM for the second.

`COc1ccc2c(OC3CC4C(=O)NC5(C(=O)O)CC5C=CCCCCCC(NC(=O)OC5CCCC5)C(=O)N4C3)cc(-c3nccs3)nc2c1` (stereo not shown) and `COc1ccc2c(O[C@@H]3C[C@H]4C(=O)N[C@]5(C(=O)O)C[C@H]5/C=C\CCCCC[C@H](NC(=O)OC5CCCC5)C(=O)N4C3)cc(-c3csc(N)n3)nc2c1` cannot be ordered by EC50: < 1000 nM for the first, < 1000 nM for the second.

`COc1ccc2c(O[C@@H]3C[C@H]4C(=O)N[C@]5(C(=O)O)C[C@H]5/C=C\CCCCC[C@H](NC(=O)OC5CCCC5)C(=O)N4C3)cc(-c3nc(C(C)C)cs3)nc2c1` and `COc1ccc2c(O[C@@H]3C[C@H]4C(=O)N[C@]5(C(=O)O)C[C@H]5/C=C\CCCCC[C@H](NC(=O)OC5CCCC5)C(=O)N4C3)cc(-c3csc(NC(C)=O)n3)nc2c1` cannot be ordered by EC50: < 1000 nM for the first, < 1000 nM for the second.

`CCOc1cc(O[C@@H]2C[C@H]3C(=O)N[C@]4(C(=O)O)C[C@H]4/C=C\CCCCC[C@H](NC(=O)C4C(C)(C)C4(C)C)C(=O)N3C2)c2ccc(OC)cc2n1` and `CCOc1cc(O[C@@H]2C[C@H]3C(=O)N[C@]4(C(=O)O)C[C@H]4/C=C\CC[C@@H](C)CC[C@H](NC(=O)OC4CCCC4)C(=O)N3C2)c2ccc(OC)cc2n1` cannot be ordered by EC50: < 1000 nM for the first, < 1000 nM for the second.

`COc1ccc2c(O[C@@H]3C[C@H]4C(=O)N[C@]5(C(=O)O)C[C@H]5/C=C\CCCCC[C@H](NC(=O)OC5CCCC5)C(=O)N4C3)cc(-n3ccc(C)n3)nc2c1` and `COc1ccc2c(O[C@@H]3C[C@H]4C(=O)N[C@]5(C(=O)O)CC5/C=C\CCCCC[C@H](NC(=O)OC5CCCC5)C(=O)N4C3)cc(-n3cccn3)nc2c1` (stereo partly shown) cannot be ordered by EC50: < 1000 nM for the first, < 1000 nM for the second.

`CCNc1nc(-c2cc(O[C@@H]3C[C@H]4C(=O)N[C@]5(C(=O)O)C[C@H]5CCCCCCC[C@H](NC(=O)OC5CCC5)C(=O)N4C3)c3ccc(OC)cc3n2)cs1` and `COc1ccc2c(O[C@@H]3C[C@H]4C(=O)N[C@]5(C(=O)O)C[C@H]5CCCCCCC[C@H](NC(=O)OC5CCC5)C(=O)N4C3)cc(-c3csc(NC(C)=O)n3)nc2c1` cannot be ordered by EC50: < 1000 nM for the first, < 1000 nM for the second.

`COc1ccc2c(O[C@@H]3C[C@H]4C(=O)N[C@]5(C(=O)O)C[C@H]5CCCCCCC[C@H](NC(=O)OC5CCC5)C(=O)N4C3)cc(-n3cccn3)nc2c1` and `COc1ccc2c(O[C@@H]3C[C@H]4C(=O)N[C@]5(C(=O)O)C[C@H]5CCCCCCC[C@H](NC(=O)OC5CCCC5)C(=O)N4C3)cc(-n3cccn3)nc2c1` cannot be ordered by EC50: < 1000 nM for the first, < 1000 nM for the second.

`COc1ccc2c(O[C@@H]3C[C@H]4C(=O)N[C@]5(C(=O)O)C[C@H]5CCCCCCC[C@H](NC(=O)OC(C)(C)C)C(=O)N4C3)cc(-c3csc(C(C)C)n3)nc2c1` and `COc1ccc2c(O[C@@H]3C[C@H]4C(=O)N[C@]5(C(=O)O)C[C@H]5CCCCCCC[C@H](NC(=O)OC(C)(C)C)C(=O)N4C3)cc(-c3csc(NC=O)n3)nc2c1` cannot be ordered by EC50: < 1000 nM for the first, < 1000 nM for the second.

`COc1ccc2c(O[C@@H]3C[C@H]4C(=O)N[C@]5(C(=O)O)C[C@H]5/C=C\CCCCC[C@H](NC(=O)OC5CCCC5)C(=O)N4C3)cc(-c3cccc(C)n3)nc2c1` and `COc1ccc2c(O[C@@H]3C[C@H]4C(=O)N[C@]5(C(=O)O)C[C@H]5/C=C\CCCCC[C@H](NC(=O)OC5CCCC5)C(=O)N4C3)cc(-n3cccc3)nc2c1` cannot be ordered by EC50: < 1000 nM for the first, < 1000 nM for the second.

`CCNc1nc(-c2cc(O[C@@H]3C[C@H]4C(=O)N[C@]5(C(=O)O)C[C@H]5CCCCCCC[C@H](NC(=O)OCC(C)C)C(=O)N4C3)c3ccc(OC)cc3n2)cs1` and `COC(=O)Nc1nc(-c2cc(O[C@@H]3C[C@H]4C(=O)N[C@]5(C(=O)O)C[C@H]5CCCCCCC[C@H](NC(=O)OC(C)(C)C)C(=O)N4C3)c3ccc(OC)cc3n2)cs1` cannot be ordered by EC50: < 1000 nM for the first, < 1000 nM for the second.

`CCOc1cc(OC2CC3C(=O)NC4(C(=O)O)CC4CCCCCCCC(NC(=O)OC4CCCC4)C(=O)N3C2)c2ccc(OC)cc2n1` (stereo not shown) and `CCOc1cc(O[C@@H]2C[C@H]3C(=O)N[C@]4(C(=O)O)C[C@H]4CCCC[C@@H](C)CC[C@H](NC(=O)OC4CCCC4)C(=O)N3C2)c2ccc(OC)cc2n1` cannot be ordered by EC50: < 1000 nM for the first, < 1000 nM for the second.

`COc1ccc2c(O[C@@H]3C[C@H]4C(=O)N[C@]5(C(=O)O)C[C@H]5CCCCCCC[C@H](NC(=O)OC(C)(C)C)C(=O)N4C3)cc(-c3cccc(C)n3)nc2c1` and `CNc1nc(-c2cc(O[C@@H]3C[C@H]4C(=O)N[C@]5(C(=O)O)C[C@H]5CCCCCCC[C@H](NC(=O)OC5CCCC5)C(=O)N4C3)c3ccc(OC)cc3n2)cs1` cannot be ordered by EC50: < 1000 nM for the first, < 1000 nM for the second.

`COc1ccc2c(O[C@@H]3C[C@H]4C(=O)N[C@]5(C(=O)O)C[C@H]5CCCCCCC[C@H](NC(=O)OC5CCC5)C(=O)N4C3)cc(-c3nccs3)nc2c1` and `COc1ccc2c(O[C@@H]3C[C@H]4C(=O)N[C@]5(C(=O)O)C[C@H]5CCCCCCC[C@H](NC(=O)OC5CCCC5)C(=O)N4C3)cc(-c3nccs3)nc2c1` cannot be ordered by EC50: < 1000 nM for the first, < 1000 nM for the second.
